# Only a part is listed here, and it is no random draw. The source made the active and inactive calls. Cut-off read from the data, not from the text of the source: active = survival mostly below about 52% (no sharp cut-off); inactive = mostly above about 56%.
# Test system: DeltatarO mutant
# Assay: S. aureus survival, RN4220 and DeltatarO strains – OD600, teichoic acid synthesis inhibitors, primary screen (AID 463173)
# Settings: S. aureus RN4220 wild type/DeltatarO growth, OD600, 18 h, stronger effect = lower value, screened at 18.75 µg/mL (by protocol)
row,Structure (SMILES),survival
1,CC(C)(C)c1ccc(C(=O)NCC2(N3CCOCC3)CCCCC2)cc1,inactive: 95%
2,Cc1ccccc1C(=O)NCC1(N(C)C)CCCCC1,inactive: 81%
3,CN(C)C1(CNC(=O)c2ccc(C(C)(C)C)cc2)CCCCC1,inactive: 89%
4,COc1cc(C(=O)NCC2(N3CCOCC3)CCCCC2)cc(OC)c1OC,inactive: 99%
5,O=C(NCC1(N2CCOCC2)CCCCC1)c1ccccc1,inactive: 94%
6,O=C(NCC1(N2CCOCC2)CCCCC1)c1ccc([N+](=O)[O-])cc1,inactive: 94%
7,O=C(NCC1(N2CCOCC2)CCCCC1)c1ccccc1[N+](=O)[O-],inactive: 92%
8,CCCOc1cccc(C(=O)NCC2(N3CCOCC3)CCCCC2)c1,inactive: 62%
9,CCOc1ccc(C(=O)NCC2(N3CCOCC3)CCCCC2)cc1,inactive: 98%
10,CCCCOc1ccccc1C(=O)NCC1(N2CCOCC2)CCCCC1,inactive: 68%
11,O=C(NCC1(N2CCOCC2)CCCCC1)c1ccccc1Br,inactive: 87%
12,O=C(NCC1(N2CCOCC2)CCCCC1)c1ccc(Cl)cc1,inactive: 103%
13,COc1ccccc1C(=O)NCC1(N2CCOCC2)CCCCC1,inactive: 90%
